Pooled drug test results. Numbers come from NIAID ChemDB, via PubChem.

Common to all: enzyme or target tests; species: HIV-1; target: Protease; endpoint: IC50

Neighbouring rows are from separate reports. An empty or dashed field is not shown. ICn: concentration for n% inhibition.

structure,strain or isolate,mutations,read by,result
Clc1ccc2c(c1)NCCC1(CCN(Cc3ccccc3)CC1)O2,-,-,absorbance,>10 µM
CCCCCCCCCCCCCC(=O)Oc1ccc([S+](C)C)cc1.COS(=O)(=O)[O-],-,-,HPLC,30 µM
COC(=O)N[C@H](C(=O)N[C@@H](Cc1ccccc1)[C@@H](O)CN(Cc1ccc(O)cc1)NC(=O)[C@@H](NC(=O)OC)C(C)C)C(C)C,-,-,substrate cleavage,0.018 µM
CC(O)[C@H](NC(=O)CCCCCCCCCCCCCCC(=O)N[C@@H](CC(N)=O)C(=O)N[C@@H](Cc1ccccc1)C(=O)O)C(=O)N[C@@H](Cc1ccccc1)C(=O)N[C@@H](Cc1ccccc1)C(N)=O,-,-,-,4.6 µM
O=[N+]([O-])c1ccc2c(c1)NCCC1(CCN(Cc3ccccc3)CC1)O2,-,-,absorbance,>10 µM
CCCCCCCCCCCCCC(=O)N[C@H](Cc1ccccc1)C(=O)O,-,-,HPLC,32 µM
CC(C)C[C@H](NC(=O)[C@@H](NC(=O)CCCCCCCCCCCCCCC(=O)N[C@@H](CC(N)=O)C(=O)N[C@@H](Cc1ccc(-c2ccccc2)cc1)C(=O)O)C(C)O)C(=O)N[C@@H](Cc1ccccc1)C(N)=O,-,-,-,1.2 µM
Oc1cc(O)c2c(c1)O[C@H](c1ccc(O)c(O)c1)[C@H](O)C2c1c(O)cc(O)c2c1O[C@H](c1cc(O)c(O)c(O)c1)[C@H](O)C2,IIIB,-,HPLC,>100 µg/mL
CC(C)[C@H](NC(=O)[C@H](Cc1ccccc1)C[C@H](O)[C@H](Cc1ccccc1)NC(=O)OC(C)(C)C)C(=O)N[C@@H](Cc1ccccc1)C(=O)N1CCOCC1,-,-,fluorescence,0.009 µM
C=CCOC(=O)N[C@H](C(=O)N[C@@H](Cc1ccccc1)[C@@H](O)CN(CC1CCCCC1)NC(=O)[C@@H](NC(=O)OCC=C)C(C)C)C(C)C,-,-,substrate cleavage,0.051 µM
CC(C)C[C@H](NC(=O)[C@@H](NC(=O)CCCCCCCCCCCCCCC(=O)N[C@@H](CC(N)=O)C(=O)N[C@@H](Cc1ccccc1)C(=O)O)C(C)O)C(=O)N1CCC[C@H]1C(=O)O,-,-,-,>5.5 µM
CC[C@H](C)C(NC(=O)CNCC(O)[C@H](Cc1ccccc1)NC(=O)OCc1ccccc1)C(=O)N[C@@H](Cc1ccccc1)C(=O)OC,-,-,-,>10 µM
C[C@H](C(=O)NC(C)(C)C)n1nnnc1[C@H](O)[C@H](Cc1ccccc1)NC(=O)[C@H](CC(N)=O)NC(=O)c1ccc2ccccc2n1,-,-,-,51 ± 3 µM
COc1c(O)cc([C@H]2Oc3c(c(O)cc(O)c3C3c4c(O)cc(O)cc4O[C@H](c4ccc(O)c(O)c4)[C@@H]3O)C[C@H]2O)cc1O,IIIB,-,HPLC,>100 µg/mL
CC(=O)N(CC[C@@H](O)[C@H](Cc1ccccc1)NC(=O)c1cccc(O)c1C)[C@@H](Cc1ccccc1)C(=O)NC1CCCCC1,-,-,-,100 µM
O=C1C(O)=C(c2c[nH]c3ccccc23)C(=O)C(O)=C1c1c[nH]c2ccccc12,-,-,-,0.24 µM
O/N=C1\CC2(CCN(Cc3ccccc3)CC2)Oc2ccc(Cl)cc21,-,-,absorbance,>10 µM
O=C(NC(CO)NC(=O)C1Cc2ccccc2CN1C(=O)OCc1ccccc1)OCc1ccccc1,-,-,substrate cleavage,4.9 µM
Cc1c(O)cccc1C(=O)N[C@@H](Cc1ccccc1)[C@H](O)CCN[C@H](C(=O)NC(C)(C)C)C(C)(C)C,-,-,-,6 µM
c1ccc(CN2CCC3(CCNc4ccccc4O3)CC2)cc1,-,-,absorbance,>10 µM
COC(=O)N[C@H](C(=O)N[C@@H](Cc1ccccc1)[C@@H](O)CN(Cc1ccc(OC)c(OC)c1OC)NC(=O)[C@@H](NC(=O)OC)C(C)C)C(C)C,-,-,substrate cleavage,0.034 µM
CC(C)C[C@H](NC(=O)OCC1c2ccccc2-c2ccccc21)C(=O)NCC[C@@H](CO)NC(=O)[C@H](CC(C)C)NC(=O)OCC1c2ccccc2-c2ccccc21,-,-,HPLC,0.63 µM
c1ccc(COc2ccc3c(c2)NCCC2(CCN(Cc4ccccc4)CC2)O3)cc1,-,-,absorbance,>10 µM
O=C(N[C@@H](Cc1cccc2ccccc12)C(=O)NCC[C@@H](CO)NC(=O)[C@H](Cc1cccc2ccccc12)NC(=O)OCC1c2ccccc2-c2ccccc21)OCC1c2ccccc2-c2ccccc21,-,-,HPLC,1.36 µM
Oc1cc(O)c2c(c1)O[C@H](c1cc(O)c(O)c(O)c1)[C@H](O)C2,IIIB,-,HPLC,>100 µg/mL
O=C(N[C@@H](Cc1ccccc1)C(=O)NCC[C@@H](CO)NC(=O)[C@H](Cc1ccccc1)NC(=O)OCC1c2ccccc2-c2ccccc21)OCC1c2ccccc2-c2ccccc21,-,-,HPLC,0.165 µM
Fc1ccc2c(c1)NCCC1(CCN(Cc3ccccc3)CC1)O2,-,-,absorbance,>10 µM
CC(C)=CCc1ccc2[nH]cc(C3=C(O)C(=O)C(c4c[nH]c5ccccc45)=C(O)C3=O)c2c1,-,-,-,0.37 µM
COc1ccc2c(c1)OC1(CCN2)CCN(Cc2ccccc2)CC1,-,-,absorbance,>10 µM
CC(C)(C)OC(=O)N[C@@H](Cc1ccc2ccccc2c1)C(=O)NCC[C@@H](CO)NC(=O)[C@H](Cc1ccc2ccccc2c1)NC(=O)OC(C)(C)C,-,-,HPLC,>5 µM
CC[C@H](C)[C@H](NC(=O)[C@H](Cc1ccccc1)NCC(O)[C@H](Cc1ccccc1)NC(=O)OCc1ccccc1)C(=O)N[C@@H](Cc1ccccc1)C(=O)OC,-,-,-,4.85 µM
C[C@@H](C(=O)NC(C)(C)C)n1nnnc1C[C@H](Cc1ccccc1)NC(=O)[C@H](CC(N)=O)NC(=O)c1ccc2ccccc2n1,-,-,-,170 ± 20 µM
COC(=O)N[C@H](C(=O)N[C@@H](Cc1ccccc1)[C@H](O)CN(CC1CCCCC1)NC(=O)[C@@H](NC(=O)OC)C(C)C)C(C)C,-,-,substrate cleavage,1.06 µM
O=C(N[C@@H](Cc1ccccc1)C(=O)NC(CO)NC(=O)[C@H](Cc1ccccc1)NC(=O)OCC1c2ccccc2-c2ccccc21)OCC1c2ccccc2-c2ccccc21,-,-,substrate cleavage,0.46 µM
COc1ccc2c(c1)NCCC1(CCN(Cc3ccccc3)CC1)O2,-,-,absorbance,>10 µM
CC[C@H](C)[C@H](NC(=O)CN(O)C(=O)[C@H](Cc1ccccc1)NC(=O)OC(C)(C)C)C(=O)N[C@@H](Cc1ccccc1)C(=O)O,-,-,-,>10 µM
CC(C)C[C@H](NC(=O)[C@@H](NC(=O)CCCCCCCCCCCCCCC(=O)N[C@@H](CC(N)=O)C(=O)N[C@@H](Cc1ccccc1)C(=O)O)C(C)O)C(=O)N[C@@H](Cc1cc(I)c(Oc2cc(I)c(O)c(I)c2)c(I)c1)C(N)=O,-,PR-L10I K45R I54V L63P A71V V82T L90M I93L,-,~0.4 µM
Nc1ccc(C[C@H](NC(=O)OCC2c3ccccc3-c3ccccc32)C(=O)NCC[C@@H](CO)NC(=O)[C@H](Cc2ccc(N)cc2)NC(=O)OCC2c3ccccc3-c3ccccc32)cc1,-,-,HPLC,>5 µM
Cc1c(O)cccc1C(=O)N[C@@H](Cc1ccccc1)[C@H](O)CCNCC(=O)NC(C)(C)C,-,-,-,16.9 µM
CC(C)(C)OC(=O)N[C@@H](Cc1ccccc1)C(=O)NCCCC[C@@H](CO)NC(=O)[C@H](Cc1ccccc1)NC(=O)OC(C)(C)C,-,-,HPLC,4.12 µM
CCNC(=O)[C@H](Cc1ccccc1)N(CC[C@@H](O)[C@H](Cc1ccccc1)NC(=O)c1cccc(O)c1C)C(C)=O,-,-,-,2.2 µM
CC(C)(C)OC(=O)N[C@@H](Cc1ccc([N+](=O)[O-])cc1)C(=O)NCC[C@@H](CO)NC(=O)[C@H](Cc1ccc([N+](=O)[O-])cc1)NC(=O)OC(C)(C)C,-,-,HPLC,4.3 µM
CC(C)C[C@@H](CC[C@@H](Cc1ccccc1)C(=O)N[C@H](C(=O)N[C@H](C(N)=O)C(C)C)C(C)C)NC(=O)[C@@H](NC(=O)[C@@H](NC(=O)OC(C)(C)C)C(C)C)C(C)C,-,-,-,>10 µM
Cc1ccc(S(=O)(=O)N(CCO)CC[C@@H](O)[C@H](Cc2ccccc2)NC(=O)c2cccc(O)c2C)cc1,-,-,-,6.5 µM
O=C(N[C@@H](Cc1ccc2ccccc2c1)C(=O)NCC[C@@H](CO)NC(=O)[C@H](Cc1ccc2ccccc2c1)NC(=O)OCC1c2ccccc2-c2ccccc21)OCC1c2ccccc2-c2ccccc21,-,-,HPLC,1.98 µM
Cc1c(O)cccc1C(=O)N[C@@H](Cc1ccccc1)[C@H](O)CCN(C)[C@@H](Cc1ccccc1)C(=O)NC(C)(C)C,-,-,-,26.2 µM
O=C(NC(CO)NC(=O)C1Cc2ccccc2CN1C(=O)OCC1c2ccccc2-c2ccccc21)OCC1c2ccccc2-c2ccccc21,-,-,substrate cleavage,4.1 µM
CC[C@H](C)[C@H](NC(=O)[C@H](Cc1ccccc1)NCC(O)[C@H](Cc1ccccc1)NC(=O)OC(C)(C)C)C(=O)N[C@@H](Cc1ccccc1)C(=O)OC,-,-,-,<10 µM
Oc1cc(O)c2c(c1)O[C@H](c1ccc(O)c(O)c1)[C@H](O)[C@H]2c1c(O)cc(O)c2c1O[C@H](c1ccc(O)c(O)c1)[C@H](O)C2,IIIB,-,HPLC,<100 µg/mL
O=C(N[C@@H](CO)NC(=O)[C@H](Cc1ccc(O)cc1)NC(=O)OCc1ccccc1)OCc1ccccc1,-,-,substrate cleavage,0.59 µM